Experimental data: patent US10646469B2, “Substituted indole derivatives as dengue viral replication inhibitors” (Janssen Pharmaceuticals, Inc., priority 2016, dated 2020)

How the values were obtained:
Assay type in all cases: cell-based, Dengue virus
[1] = tested on: DENV-1 strain TC974 #666; assay: Tetravalent RT-qPCR assay, serotype 1; conditions: RT-qPCR serotype 1 TC974#666, Protocol A
Procedure: (§1) The antiviral activity of the compounds of the invention was tested against DENV-1 strain TC974 #666 (NCPV), DENV-2 strain 16681, DENV-3 strain H87 (NCPV) and DENV-4 strain H241 (NCPV) in a RT-qPCR assay. Therefore, Vero cells were infected with either DENV-1, or -2, or -3, or -4 in the presence or absence of test compounds. At day 3 post-infection, the cells were lysed and cell lysates were used to prepare cDNA of both a viral target (the 3′UTR of DENV; Table 2) and cellular reference gene (β-actin, Table 2). Subsequently, a duplex real time PCR was performed on a Lightcycler480 instrument. The generated Cp value is inversely proportional to the amount of RNA expression of these targets. Inhibition of DENV replication by a test compound results in a shift of Cp's for the 3′UTR gene. On the other hand, if a test compound is toxic to the cells, a similar effect on β-actin expression will be observed. The comparative ΔΔCp method is used to calculate EC50, which is based on the relative gene expression of the target gene (3′UTR) normalized with the cellular housekeeping gene (β-actin). In addition, CC50 values are determined based on the Cp values acquired for the housekeeping gene β-actin.
(§2) The culture medium consisted of minimal essential medium supplemented with 2% of heat-inactivated fetal calf serum, 0.04% gentamycin (50 mg/mL) and 2 mM of L-glutamine. Vero cells, obtained from ECACC, were suspended in culture medium and 75 μL/well was added in 96-well plates (10000 cells/well), which already contain the antiviral compounds. […] In addition, each plate contains wells which are assigned as virus controls (containing cells and virus in the absence of compound) and cell controls (containing cells in the absence of virus and compound). Once the cells were added in the plates, the plates were incubated in a fully humidified incubator (37° C., 5% CO2) until the next day. Dengue viruses serotype-1, 2, 3 and 4 were diluted in order to obtain a Cp of ˜22-24 in the assay. Therefore, 25 μL of virus suspension was added to all the wells containing test compound and to the wells assigned as virus control. In parallel, 25 μL of culture medium was added to the cell controls. Next, the plates were incubated for 3 days in a fully humidified incubator (37° C., 5% CO2). After 3 days, the supernatant was removed from the wells and the cells were washed twice with ice-cold PBS (˜100 μL). The cell pellets within the 96-well plates were stored at −80° C. for at least 1 day. Next, RNA was extracted using the Cells-to-CT™ lysis kit, according to the manufacturer's guideline (Life Technologies). The cell lysates can be stored at −80° C. or immediately used in the reverse transcription step.
(§3) In preparation of the reverse transcription step, mix A (table 3A) was prepared and 7.57 μL/well was dispensed in a 96-well plate. After addition of 5 μL of the cell lysates, a five minute denaturation step at 75° C. was performed (table 3B). Afterwards, 7.43 μL of mix B was added (table 3C) and the reverse transcription step was initiated (table 3D) to generate cDNA.
(§4) Finally, a RT-qPCR mix was prepared, mix C (table 4A), and 22.02 μL/well was dispensed in 96-well LightCycler qPCR plates to which 3 μL of cDNA was added and the qPCR was performed according to the conditions in table 4B on a LightCycler 480.
(§5) Using the LightCycler software and an in-house LIMS system, dose response curves for each compound were calculated and the half maximal effective concentration (EC50) and the half maximal cytotoxic concentration (CC50) were determined (Tables 5-8).

[2] = tested on: DENV-4 strain H241; assay: Tetravalent RT-qPCR assay, serotype 4; conditions: RT-qPCR serotype 4 H241, Protocol A; ratio CC50 / EC50
Procedure: as §1, §2, §3, §4, §5

[3] = tested on: DENV-2 16681 strain; assay: DENV-2 antiviral assay (eGFP-labeled virus in Vero cells); conditions: SI=CC50/EC50, DENV-2 antiviral assay
Procedure: The antiviral activity of all the compounds of the invention was tested against the DENV-2 16681 strain which was labeled with enhanced green fluorescent protein (eGPF). The culture medium consists of minimal essential medium supplemented with 2% of heat-inactivated fetal calf serum, 0.04% gentamycin (50 mg/mL) and 2 mM of L-glutamine. Vero cells, obtained from ECACC, were suspended in culture medium and 25 μL was added to 384-well plates (2500 cells/well), which already contain the antiviral compounds. Typically, these plates contain a 5-fold serial dilution of 9 dilution steps of the test compound at 200 times the final concentration in 100% DMSO (200 nL). […] Finally, each plate contains wells which are assigned as virus controls (containing cells and virus in the absence of compound), cell controls (containing cells in the absence of virus and compound) and medium controls (containing medium in the absence of cells, virus and compounds). To the wells assigned as medium control, 25 μL of culture medium was added instead of Vero cells. Once the cells were added to the plates, the plates were incubated for 30 minutes at room temperature to allow the cells to distribute evenly within the wells. Next, the plates were incubated in a fully humidified incubator (37° C., 5% CO2) until the next day. Then, DENV-2 strain 16681, labeled with eGFP, was added at a multiplicity of infection (MOI) of 0.5. Therefore, 15 μL of virus suspension was added to all the wells containing test compound and to the wells assigned as virus control. In parallel, 15 μL of culture medium was added to the medium and cell controls. Next, the plates were incubated for 3 days in a fully humidified incubator (37° C., 5% CO2). At the day of the read out, the eGFP fluorescence was measured using an automated fluorescence microscope at 488 nm (blue laser). Using an in-house LIMS system, inhibition dose response curves for each compound were calculated and the half maximal effective concentration (EC50) was determined. Therefore, the percent inhibition (I) for every test concentration is calculated using the following formula: I=100*([…])/(SVC−SCC); ST, SCC and SVC are the amount of eGFP signal in the test compound, cell control and virus control wells, respectively. The EC50 represents the concentration of a compound at which the virus replication is inhibited with 50%, as measured by a 50% reduction of the eGFP fluorescent intensity compared to the virus control. The EC50 is calculated using linear interpolation (Table 1).

[4] = tested on: DENV-2 strain 16681; assay: Tetravalent RT-qPCR assay, serotype 2; conditions: RT-qPCR serotype 2 16681, Protocol A
Procedure: as §1, §2, §3, §4, §5

[5] = tested on: DENV-3 strain H87; assay: Tetravalent RT-qPCR assay, serotype 3; conditions: RT-qPCR serotype 3 H87, Protocol A
Procedure: as §1, §2, §3, §4, §5

| Compound | SI [1] | SI [2] | SI [3] | SI [4] | SI [5] |
| --- | --- | --- | --- | --- | --- |
| COc1cc(NC(C(=O)c2c[nH]c3cc(F)c(C(F)(F)F)cc23)c2ccc(Cl)cc2OC)cc(OCCO)c1 (single isomer, unassigned) [Compound 11A, 2-(4-chloro-2-methoxyphenyl)-1-(6-fluoro-5-(trifluoromethyl)-1H-indol-3-yl)-2-((3-(2-hydroxyethoxy)-5-methoxyphenyl)amino)ethanone] | >7140 | 50 | 7820 | >13400 | >741 |
| COc1cc(NC(C(=O)c2c[nH]c3c(C)cc(C(F)(F)F)cc23)c2ccc(Cl)cc2OC)cc(OCCO)c1 (single isomer, unassigned) [Compound 12A, 2-(4-chloro-2-methoxyphenyl)-2-((3-(2-hydroxyethoxy)-5-methoxyphenyl)amino)-1-(7-methyl-5-(trifluoromethyl)-1H-indol-3-yl)ethanone] | >7400 | 91 | 21500 | >15400 | >862 |
| COc1cc(NC(C(=O)c2c[nH]c3ccc(OC(F)(F)F)cc23)c2ccc(Cl)cc2OC)cc(OCCO)c1 (single isomer, unassigned) [Compound 13A, 2-(4-chloro-2-methoxyphenyl)-2-((3-(2-hydroxyethoxy)-5-methoxyphenyl)amino)-1-(5-(trifluoromethoxy)-1H-indol-3-yl)ethanone] | 1940 | >121 | 23000 | 19700 | >1010 |
| COc1cc(NC(C(=O)c2c[nH]c3cc(OC)c(OC(F)(F)F)cc23)c2ccc(Cl)cc2OC)cc(OCCO)c1 (single isomer, unassigned) [Compound 14A, 2-(4-chloro-2-methoxyphenyl)-2-((3-(2-hydroxyethoxy)-5-methoxyphenyl)amino)-1-(6-methoxy-5-(trifluoromethoxy)-1H-indol-3-yl)ethanone] | 3680 | 75 | 18500 | 25800 | 534 |
| COc1cc(NC(C(=O)c2c[nH]c3cc(F)c(OC(F)(F)F)cc23)c2ccc(Cl)cc2OC)cc(OCCO)c1 (single isomer, unassigned) [Compound 15B, 2-(4-chloro-2-methoxyphenyl)-1-(6-fluoro-5-(trifluoromethoxy)-1H-indol-3-yl)-2-((3-(2-hydroxyethoxy)-5-methoxyphenyl)amino)ethanone] | 4720 | 47 | 10200 | 18600 | 1130 |
| COc1cc(NC(C(=O)c2c[nH]c3c(C)cc(OC(F)(F)F)cc23)c2ccc(Cl)cc2OC)cc(OCCO)c1 (single isomer, unassigned) [Compound 16A, 2-(4-chloro-2-methoxyphenyl)-2-((3-(2-hydroxyethoxy)-5-methoxyphenyl)amino)-1-(7-methyl-5-(trifluoromethoxy)-1H-indol-3-yl)ethanone] | >12400 | >84 | >45000 | >32000 | >1650 |
